Reference: publication PMC3723252, “Trypanocidal Activity of Thioamide-Substituted Imidazoquinolinone: Electrochemical Properties and Biological Effects” (Evidence-based Complementary and Alternative Medicine : eCAM, 2013)

Test system: bloodstream trypomastigotes
Assay: Trypanocidal effect on bloodstream trypomastigotes (24 h, mouse blood)
Type: cell-based, Trypanosoma cruzi
Details: for Trypomastigotes SI: CC50 Vero cells / IC50 trypomastigotes
Procedure: Trypanosoma cruzi epimastigotes (Tulahuen strain) were grown as previously described. Bloodstream trypomastigotes were obtained from infected CF1 mice by cardiac puncture. Tulahuen strain expressing the β-galactosidase gene was kindly provided by Dr Buckner (University of Washington, USA).
The trypanocidal effects of C1, C2, C3, D and Bnz were also tested on bloodstream trypomastigotes according to a standard WHO protocol slightly modified. Briefly, mouse blood containing trypomastigotes was treated with different concentrations of each compound (0.30 to 350 μM) or Bnz (0.38 to 38 μM). Plates were incubated for 24 h, and surviving parasites were counted in a Neubauer chamber as previously described. Results were expressed as the percentage of lysed parasites (%L) relative to the number of parasites in the control: %L = [1 − (CDt/(CDc)] × 100, where CDt and CDc represent the cellular density of treated and untreated parasites, respectively.
The results presented are representative of three to four separate experiments, performed in duplicates or triplicates. All data are expressed as means ± standard errors of the mean (SEM). To calculate the IC50 values, the %I or %L values were plotted against the log of drug concentration (μM) and fitted with a straight line determined by a linear regression (Sigma Plot 10 software). The significance of differences was evaluated using Student' t test, taking a P < 0.05 as significant. Flow cytometry data were analyzed employing the WinMDI 2.9 software.

O=C(Cn1ccnc1[N+](=O)[O-])NCc1ccccc1 [Bnz, Benznidazole, reference compound]
Trypomastigotes SI: 2.7

O=c1c2ccccc2c(C(=S)Nc2ccc(Cl)cc2)c2n1CCN2 [Compound C2, N-(4-chlorophenyl)-5-oxo-1,2,3,5-tetrahydroimidazo[1,2-b]isoquinolin-10-carbothioamide]
Trypomastigotes SI: >0.3

Cc1ccc(NC(=S)c2c3n(c(=O)c4ccccc24)CCN3)cc1 [Compound C3]
Trypomastigotes SI: >0.4

O=c1c2ccccc2c(C(=S)Nc2ccccc2)c2n1CCN2 [Compound C1, N-phenyl-5-oxo-1,2,3,5-tetrahydroimidazo[1,2-b]isoquinolin-10-carbothioamide]
Trypomastigotes SI: >2.9
times more active than C2 and C3 on trypomastigotes (from IC50 values of Table 1): 10 times
